Reference: patent US11613546B2, “Substituted pyridotriazine compounds and uses thereof” (Gilead Sciences, Inc., priority 2021, dated 2023)

Tested on: pLai RLuc reporter virus
Assay: HIV MT-4 serum shift antiviral reporter assay
Assay type: cell-based
Settings: EC50 (HS/CCM)/EC50 (CCM) fold shift, measure of protein binding
Description: To quantify the amount of protein binding to human serum, compounds were serially diluted (1:3) in DMSO and acoustically transferred onto 384-well assay plates via a Labcyte ECHO robot. Each plate contained up to 8 test compounds, including negative and positive controls, (DMSO, 5 μM AZT respectively). Assay plates were prepared in duplicate, and tested in either CCM (cell culture media) or HS/CCM (human serum/cell culture media). MT-4 cells were first pre-infected with pLai RLuc reporter virus for 2 h at 37° C., then further diluted in either CCM (RPMI media, 10% FBS, 1% P/S) or HS/CCM (RPMI media, 10% FBS, 50% HS, 1% P/S), and subsequently added to each plate using a Biotek Micro Flow dispenser. After a 72-h incubation in a humidified and temperature controlled incubator (37° C.), Renilla Glo (Promega) was added to all assay plates and chemiluminescence read using an Envision plate-reader. EC50 values were defined as the compound concentration that causes a 50% decrease in luminescence signal, and were calculated using a sigmoidal dose-response model to generate curve fits. To determine the amount of protein binding, EC50 fold shifts (or EC50 shifts) were calculated by dividing EC50 (HS/CCM)/EC50 (CCM).

SMILES: C[C@H]1C/C=C\CN2CN1n1cc(C(=O)NCc3ccc(F)cc3F)c(=O)c(O)c1C2=O [Example C41, (1S,2S,Z)—N-(2,4-difluorobenzyl)-9-hydroxy-2-methyl-8,10-dioxo-3,6,8,10-tetrahydro-2H-1,7-methanopyrido[1,2-b][1,2,5]triazecine-11-carboxamide]
- RLUC Shift: 97

SMILES: C[C@@H]1CCCCN2CN1n1cc(C(=O)NCc3c(F)cc(F)cc3F)c(=O)c(O)c1C2=O [Example C17, (1S,2R)-9-hydroxy-2-methyl-8,10-dioxo-N-(2,4,6-trifluorobenzyl)-3,4,5,6,8,10-hexahydro-2H-1,7-methanopyrido[1,2-b][1,2,5]triazecine-11-carboxamide]
- RLUC Shift: 44

SMILES: C[C@H]1CCCCN2CN1n1cc(C(=O)NCc3ccc(F)cc3F)c(=O)c(O)c1C2=O [Example C42, (1R,2S)—N-(2,4-difluorobenzyl)-9-hydroxy-2-methyl-8,10-dioxo-3,4,5,6,8,10-hexahydro-2H-1,7-methanopyrido[1,2-b][1,2,5]triazecine-11-carboxamide]
- RLUC Shift: 761

SMILES: CO[C@@H]1C[C@@H](C)N2CN(C(=O)c3c(O)c(=O)c(C(=O)NCc4c(F)cc(F)cc4F)cn32)[C@H]1C [Example C33, (1S,2R,4R,5S)-8-hydroxy-4-methoxy-2,5-dimethyl-7,9-dioxo-N-(2,4,6-trifluorobenzyl)-2,3,4,5,7,9-hexahydro-1,6-methanopyrido[1,2-b][1,2,5]triazonine-10-carboxamide]
- RLUC Shift: 2.3

SMILES: O=C(NCc1c(F)cc(F)cc1F)c1cn2c(c(O)c1=O)C(=O)N1Cc3ccc(F)cc3CN2C1 [Example C4, (6S)-9-fluoro-1-hydroxy-2,14-dioxo-N-(2,4,6-trifluorobenzyl)-2,7,12,14-tetrahydro-6,13-methanobenzo[g]pyrido[1,2-b][1,2,5]triazonine-3-carboxamide]
- RLUC Shift: 11

SMILES: C[C@H]1CC[C@H](C)N2CN1C(=O)c1c(O)c(=O)c(C(=O)NCc3c(F)cc(F)cc3F)cn12 [Example C27, (1S,2R,5S)-8-hydroxy-2,5-dimethyl-7,9-dioxo-N-(2,4,6-trifluorobenzyl)-2,3,4,5,7,9-hexahydro-1,6-methanopyrido[1,2-b][1,2,5]triazonine-10-carboxamide]
- RLUC Shift: 1072

SMILES: O=C(NCc1c(F)cc(F)cc1F)c1cn2c(c(O)c1=O)C(=O)N1CCCCN2C1Cc1ccccc1 (centres unmarked) [Example C6, 13-benzyl-8-hydroxy-7,9-dioxo-N-(2,4,6-trifluorobenzyl)-2,3,4,5,7,9-hexahydro-1,6-methanopyrido[1,2-b][1,2,5]triazonine-10-carboxamide]
- RLUC Shift: 7

SMILES: C[C@@H]1CCCCN2CN1n1cc(C(=O)NCc3ccc(F)cc3F)c(=O)c(O)c1C2=O [Example C13, (1S,2R)—N-(2,4-difluorobenzyl)-9-hydroxy-2-methyl-8,10-dioxo-3,4,5,6,8,10-hexahydro-2H-1,7-methanopyrido[1,2-b][1,2,5]triazecine-11-carboxamide]
- RLUC Shift: 16

SMILES: O=C(NCc1c(F)cc(F)cc1F)c1cn2c(c(O)c1=O)C(=O)N1Cc3cc(F)ccc3CN2C1 [Example C1, (6R)-10-fluoro-1-hydroxy-2,14-dioxo-N-(2,4,6-trifluorobenzyl)-2,7,12,14-tetrahydro-6,13-methanobenzo[g]pyrido[1,2-b][1,2,5]triazonine-3-carboxamide]
- RLUC Shift: 9

SMILES: C[C@@H]1CC[C@H](CF)N2CN1n1cc(C(=O)NCc3ccc(F)cc3F)c(=O)c(O)c1C2=O [Example C98, (1S,2R,5R)—N-(2,4-difluorobenzyl)-5-(fluoromethyl)-8-hydroxy-2-methyl-7,9-dioxo-2,3,4,5,7,9-hexahydro-1,6-methanopyrido[1,2-b][1,2,5]triazonine-10-carboxamide]
- RLUC Shift: 450

SMILES: C[C@@H]1C=C[C@H](C)N2CN1n1cc(C(=O)NCc3ccc(F)cc3F)c(=O)c(O)c1C2=O [Example C29, (1S,2R,5S)—N-(2,4-difluorobenzyl)-8-hydroxy-2,5-dimethyl-7,9-dioxo-2,5,7,9-tetrahydro-1,6-methanopyrido[1,2-b][1,2,5]triazonine-10-carboxamide]
- RLUC Shift: 543
